PubChem BioAssay AID651820 (National Center for Advancing Translational Sciences (NCATS), 2012)
This is a selection; strong and weak results do not stand in their true shares. Inconclusive results are not listed. Where a call stands in place of a potency, no number is given. The source made the active and inactive calls. Calls follow the shape of the dose curve; as a rule, active = well fitted inhibition curve with a large enough effect; inconclusive = small, poorly fitted or top-dose-only effect, or another doubt; inactive = no such curve, though single readings can be large or run the other way.

assay: qHTS Assay for Inhibitors of Hepatitis C Virus (HCV); conditions: Huh7.5.1 HCVcc-Cre (HCVcc is cell-culture hepatitis C virus) infection, luciferase reporter, 44 h; series mostly up to 41.8 µM
From the text: Hepatitis C virus (HCV) infects about 200 million people in the world. Many infected people progress to chronic liver disease including cirrhosis with a risk of developing liver cancer. To date, there is no effective vaccine for hepatitis C. Current therapy based on interferon is only effective in about half of the patients and is associated with significant adverse effects. The fraction of people with HCV who can complete a successful treatment is estimated to be no more than 10 percent. Recent development of direct-acting antivirals against HCV, such as protease and polymerase inhibitors, is promising but still requires combination with peginterferon and ribavirin for maximal efficacy. In addition, these agents are associated with high rate of resistance and many have significant side effects. Due to the lack of a culture system for infectious HCV, the search for new HCV drugs has been greatly hampered. […] High-throughput screening (HTS) with an infectious HCV system would cover the complete spectrum of potentially druggable targets in all stages of HCV lifecycle, and would have more biological relevance than other cell-based assays. Moreover, targeting several key processes in the viral life cycle may not only increase antiviral efficacy; more importantly, it may also reduce the capacity of the virus to develop resistance to the compound. The goal of this project is to identify novel HCV inhibitors as new therapies for hepatitis C, using a highly sensitive and specific assay platform which is based on a HCV infectious cell culture system established in the laboratory and adapted for high-throughput HCV drug screen. NIH Chemical Genomics Center [NCGC] NIH Molecular Libraries Probe Centers Network [MLPCN] MLPCN Grant: MH095511 Assay Submitter (PI): Jake Liang, NIDDK
The assay will start with plating 1,000 cells/well in 3 µL volume and culture for 4 h. Then 23 nL of compounds from the library collection will be added to each well, followed by adding 2.5 µL of HCVcc-Cre virus (~ 0.5 moi) and further cultured for 44 h before the luciferase assay. A volume of 4.5 µL luciferase substrates will be added to each well and the plates will be incubated at room temperature for 15 min. and then read for 15 sec. for the luciferase activity

**Q.** For `CN1CCCCC1COC(=O)C1(O)c2ccccc2CCc2ccccc21` (stereo unspecified), which Potency is on record?
**A.** inactive

**Q.** Which Potency does the source give for `O=[N+]([O-])c1cc([N+](=O)[O-])c(-c2cnn(-c3ccccc3)c2)c([N+](=O)[O-])c1` here?
**A.** active: 11.2 µM

**Q.** For `CCN(CC)CCCOC(=O)C(O)(c1ccccc1)c1ccccc1`, which Potency is on record?
**A.** inactive

**Q.** Which Potency does the source give for `Cc1cccc(C)c1OP(C)(=O)Nc1ccc(SC(F)(F)F)cc1` (stereo unspecified) here?
**A.** active: 12.6 µM

**Q.** With `CCN(CC)CC(O)COC(=O)C(O)(c1ccccc1)C1CCCCC1` (stereo unspecified) as the molecule, how does the Potency read?
**A.** inactive

**Q.** Which Potency does the source give for `O=C(OCCCN1CCCC1)C(O)(c1ccccc1)C1CCCCC1` (stereo unspecified) here?
**A.** inactive

**Q.** Which Potency does the source give for `CN(C)CCOC(=O)C(O)(c1ccccc1)C1CCCC1` (stereo unspecified) here?
**A.** inactive

**Q.** For `CCN(CC)CCCOC(=O)C(O)(c1ccccc1)C1CCCCC1` (stereo unspecified), which Potency is on record?
**A.** inactive

**Q.** With `O=C(OCCN1CCN(CCOCc2ccccc2)CC1)C(O)(c1ccccc1)c1ccccc1` as the molecule, how does the Potency read?
**A.** inactive

**Q.** Which Potency does the source give for `CN(C)CCOC(=O)C(O)(c1ccccc1)C1CCCCC1` (stereo unspecified) here?
**A.** inactive

**Q.** For `O=[N+]([O-])c1ccc(OP2(=O)COCCO2)cc1` (stereo unspecified), which Potency is on record?
**A.** inactive
